Anti-infective test results gathered from many reports (values: NIAID ChemDB through PubChem).

All rows: whole-cell or culture tests; agent: Candida albicans; endpoint: Mean MIC

Rows are shuffled and stem from different studies.

SMILES | strain or isolate | result
Cc1c(Cn2ccnc2)cc(-c2ccccc2)n1-c1ccc(Cl)cc1Cl | 20 strains | 36.6 µg/mL
Fc1ccc(COc2ccc(C(c3cccc4ccccc34)n3ccnc3)cc2)cc1.O=[N+]([O-])O | 16 strains | ≥256 µg/mL
O=C(Nc1ccccc1Cn1ccnc1)c1ccc([N+](=O)[O-])cc1[N+](=O)[O-] | 27 strains | 67.77 µg/mL
Fc1ccc(COc2ccc(C(c3nccc4ccccc34)n3ccnc3)cc2)cc1 | 16 strains | ≥256 µg/mL
Cc1c(CN(C)C)cc(-c2ccc(Cl)cc2)n1-c1ccc(Cl)cc1 | 20 strains | 27.8 µg/mL
Cc1ccc(-c2cn(-c3ccc(Cl)cc3)c(C)c2C(=O)O)cc1 | 40 strains | 36.5 µg/mL
c1ccc(-c2c[nH]cc2C(c2ccc3ccccc3c2)n2ccnc2)cc1 | 33 strains | 21.61 µg/mL
Clc1ccc(COc2ccc(C(c3cccc4ccccc34)n3ccnc3)cc2)c(Cl)c1.O=[N+]([O-])O | 17 strains | ≥256 µg/mL
c1ccc(-c2ccc(C(c3cccc4ccccc34)n3ccnc3)cc2)cc1 | 23 strains | 108 µg/mL
Fc1ccc(COc2ccc(C(c3ccc4ccccc4c3)n3ccnc3)cc2)cc1.O=[N+]([O-])O | 16 strains | ≥256 µg/mL
OC[C@H]1CO[C@](Cn2ccnc2)(c2ccc(-c3ccccc3)cc2)O1 | 44 strains | 79.8 µg/mL
c1ccc(-c2c[nH]cc2C(c2cccc3ccccc23)n2ccnc2)cc1 | 33 strains | 8.97 µg/mL
Cc1c(C(=O)O)c(-c2ccc(Cl)cc2)cn1-c1ccc(Br)cc1 | 40 strains | 24.85 µg/mL
Cc1c(Cn2ccnc2)cc(-c2ccc(Cl)cc2)n1-c1ccccc1 | 20 strains | 50.7 µg/mL
Clc1cccc(Cl)c1COc1ccc(C(c2ccc3ccccc3c2)n2ccnc2)cc1.O=[N+]([O-])O | 17 strains | ≥256 µg/mL
CCC1CCCC(CC)C(=O)NCCCC(CC)C(OC2OC(C)C(O)C(N)C2OC2OC(CO)C(O)C(O)C2O)CC1 | 12 strains | >10.7 µg/mL
COc1ccc(C(c2ccc3ccccc3c2)n2ccnc2)cc1 | 23 strains | 23 µg/mL
CCN1CCC(O)(/C=C/c2ccc(C)cc2)C(C(=O)/C=C/c2ccc(C)cc2)C1 | 10 strains | 90.9 µM
Cc1ccc(C(c2cccc3ccccc23)n2ccnc2)cc1 | 23 strains | 12.4 µg/mL
CCC1CCCC(CC)C(=O)NCCCC(CC)C(OC2OC(C)C(O)C(N)C2OC2OC(CO)C(O)C(O)C2O)CC1 | 12 strains | ≥10.7 µg/mL
Cc1c(C(=O)O)c(-c2ccc(F)cc2)cn1-c1ccc(Br)cc1 | 40 strains | 16.77 µg/mL
Cn1cc(-c2ccccc2)c(C(c2ccc3ccccc3c2)n2ccnc2)c1 | 33 strains | 190 µg/mL
c1ccc2c(C(c3ccc(-n4cccc4)cc3)n3ccnc3)cccc2c1 | 23 strains | 2.76 µg/mL
O=C(Nc1cccc(Cn2ccnc2)c1)c1ccccc1 | 27 strains | 175 µg/mL
Clc1cccc(Cl)c1COc1ccc(C(c2nccc3ccccc23)n2ccnc2)cc1 | 16 strains | ≥256 µg/mL
CS(=O)(=O)OCC1COC(Cn2ccnc2)(c2ccc(-c3ccccc3)cc2)O1 | 44 strains | 94.1 µg/mL
Cc1c(C(=O)O)c(-c2ccc(F)cc2)cn1-c1ccc(F)cc1 | 40 strains | 41.67 µg/mL
CS(=O)(=O)OC[C@H]1CO[C@](Cn2ccnc2)(c2ccc(-c3ccccc3)cc2)O1 | 44 strains | >256 µg/mL
Clc1ccc(COC(Cn2ccnc2)c2ccc(Cl)cc2Cl)c(Cl)c1 | 10 strains | 5.66 µg/mL
Fc1ccc(C(c2cccc3ccccc23)n2ccnc2)cc1 | 23 strains | 7.1 µg/mL
O=C(Nc1ccc(Cn2ccnc2)cc1)c1ccccc1 | 27 strains | 109 µg/mL
c1csc(C(c2ccc3ccccc3c2)n2ccnc2)c1 | 23 strains | 8 µg/mL
O=C(Nc1cccc(Cn2ccnc2)c1)c1ccccc1Cl | 27 strains | 200 µg/mL
Clc1ccc(C(c2c[nH]cc2-c2ccccc2)n2ccnc2)s1 | 33 strains | >256 µg/mL
c1ccc(C(c2ccc3ccccc3c2)n2ccnc2)cc1 | 23 strains | 4.6 µg/mL
Cn1cc(-c2ccccc2)c(C(c2ccc(-c3ccccc3)cc2)n2ccnc2)c1 | 33 strains | 173 µg/mL
Cc1c(CN2CCCC2)cc(-c2ccccc2)n1-c1ccc(Cl)cc1Cl | 20 strains | 50 µg/mL
O=[N+]([O-])c1c(Cl)cccc1-c1c[nH]cc1Cl | 40 strains | 47.92 µg/mL
CCN1CCC(O)(/C=C/c2ccc(Cl)c(Cl)c2)C(C(=O)/C=C/c2ccc(Cl)c(Cl)c2)C1 | 10 strains | 25 µM
Cc1ccc(-n2cc(-c3ccc(Br)cc3)c(C(=O)O)c2C)cc1 | 40 strains | 47.92 µg/mL
Clc1cccc(Cl)c1COc1ccc(C(c2cccc3ccccc23)n2ccnc2)cc1.O=[N+]([O-])O | 16 strains | ≥256 µg/mL
Cc1c(CN2CCCC2)cc(-c2ccc(Cl)cc2)n1-c1ccc(F)cc1 | 20 strains | 107.2 µg/mL
O=C(Nc1ccccc1Cn1ccnc1)c1cccc([N+](=O)[O-])c1 | 27 strains | 87.52 µg/mL
Clc1cccc(Cl)c1COc1ccc(C(c2ccc(-c3ccccc3)cc2)n2ccnc2)cc1.O=[N+]([O-])O | 17 strains | ≥256 µg/mL

For reference, 5 entries again:

SMILES	strain or isolate	result
c1ccc(-c2c[nH]cc2C(c2ccc3ccccc3c2)n2ccnc2)cc1	33 strains	21.61 µg/mL
CS(=O)(=O)OCC1COC(Cn2ccnc2)(c2ccc(-c3ccccc3)cc2)O1	44 strains	94.1 µg/mL
CCN1CCC(O)(/C=C/c2ccc(Cl)c(Cl)c2)C(C(=O)/C=C/c2ccc(Cl)c(Cl)c2)C1	10 strains	25 µM
Clc1ccc(COC(Cn2ccnc2)c2ccc(Cl)cc2Cl)c(Cl)c1	10 strains	5.66 µg/mL
Fc1ccc(COc2ccc(C(c3ccc4ccccc4c3)n3ccnc3)cc2)cc1.O=[N+]([O-])O	16 strains	≥256 µg/mL